“And” between values parts separate entries of the source, which are not always exact repeats. Equal entries are not always repeated.
System: zebrafish (Danio rerio) embryos
Experiment: Zebrafish embryo toxicity (lethal, developmental, cardiotoxicity)
Description: The toxicity evaluation of B12-JR1, B12-JR1-CBC and vitamin B12 in the zebrafish model was carried out according to general rules of the OECD Guidelines for the Testing of Chemicals. […] Embryos of wild type zebrafish (Danio rerio, AB strain) were raised in a temperature- and light-controlled zebrafish facility with 28 °C and standard 14:10-h light-dark photoperiod, and regularly fed with commercially dry flake food (TetraMin™ flakes; Tetra Melle, Germany) twice a day and Artemia nauplii once daily. Zebrafish embryos were produced by the pair-wise mating, collected and distributed into 24-well plates containing 10 embryos per well and 1 mL embryos water (0.2 g L^−1 of Instant Ocean® Salt in distilled water), and raised at 28 °C. […] Experiments were performed three times using 30 embryos per concentration. Apical endpoints for the toxicity evaluation (Table S1) were recorded at 24, 48, 72, 96 and 120 hpf using an inverted microscope (CKX41; Olympus, Tokyo, Japan). […] Experiments were performed three times using 5 embryos per concentration. The hepatotoxicity was determined according to the change of liver area index compared to the control group, calculated as the ration between liver area and embryonic lateral area x 100%, as reported by Zhang et al.. In addition, the liver colour and retention of yolk were followed as the phenotypic signs of hepatotoxicity.

Question: How did the “Ti (LC50/IC50) K1, therapeutic window” value turn out when “cobalamin-7-chloro-N-(2-(4-(4-ethynylphenyl)-1H-1,2,3-triazol-1-yl)ethyl)quinolin-4-amine [Compound B12-JR1]” was run?
Answer: Its value is > 16 and >16.3.

From publication PMC6630517 (Molecules, 2019)
